## Screening data, single-dose tests

A: 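Whole-cell growth test on Mycobacterium tuberculosis, read after 3 days in glucose-containing 7H9 medium; the read-out is not stated. Tested at 50 µM. The record gives no direction; compounds that gave an IC50 in retests scored well above the rest, so higher reads as more growth inhibition. Of about 69,000 compounds tested this way, about 760 (1.1%) reached 50% or more in at least one test.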
B: 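Growth of Mycobacterium tuberculosis over 4 days (cholesterol / DPPC medium with tyloxapol); the read-out is not stated. Concentration: 50 µM. Higher reads as more growth inhibition (inferred: compounds with an IC50 in retests scored well above the rest). About 69,000 compounds were tested under these conditions; 0.54% (about 370) showed 50% or more at least once.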

The filed quantity is “Percent Effect” (%). The controls that fix the scale are not given in the record; negative values are as filed. The entries come from a sample that favours strong results. Two or more numbers in one place are separate tests of the same structure; such repeats can differ widely.

CC(C)OCc1ccc(CNc2cncc(-n3cccn3)n2)cc1 read B: 50.64%.
CCCc1nnsc1C(=O)NCC1CCN(c2ccccn2)CC1 read A: 60.95% and 19.67%.
CCc1nc(NS(=O)(=O)c2ccc(C)cc2Cl)no1 read A: -2.365%.
O=C(C1CC2(CCNCC2)CN1)N1CCN(c2cccc(Cl)c2Cl)CC1 (centres unmarked) read A: 50.08%.
COc1cc(Cl)cc(CN2CCCC(N3CCCC3)C2)c1OC (centres unmarked) read A: 70.79%.
Cc1ncc(CN2CCCN(Cc3noc(C4CC4)n3)CC2)s1 read B: -10.53%.
N#Cc1ccc(NCc2cccc(COC3CCOCC3)c2)nc1 read A: 124.4% and 26.47%.
O=C(c1cccc2cc[nH]c12)N1CCC2(CCOC2)C1 (centres unmarked) read A: -19.25%.
N#Cc1cn[nH]c1NCc1cc(Br)ccc1O read A: 50.28%.
[H][C@]12CC[C@]([H])(CN(c3cc(OC)ncn3)C1)N(CC1CCC1)C2=O read A: -16.51%.
COCCN(Cc1ccoc1)S(=O)(=O)c1ccc(OC)c(Cl)c1 read B: 4.064%.
Cc1cc(N(C)Cc2ccsc2)n2nc(C)c(C)c2n1 read A: 77.45% and 78.77%; B: 73.41%.
NC(=O)CC1CCN(C(=O)CCOc2ccc(Cl)cc2)CC1 read A: -21.63%.
CS(=O)(=O)NC1CCN(C(=O)NCCNc2ccccn2)CC1 read B: -21.77%.
Cc1ncc(CN(Cc2ccccn2)Cc2ccccc2Cl)n1C.O=C(O)CC(O)(CC(=O)O)C(=O)O read A: 39.44%.
COc1ccc(CN(Cc2ccccn2)Cc2cncn2C)cc1.O=C(O)CC(O)(CC(=O)O)C(=O)O read A: 22.24%.
O=C(CCNC(=O)C1=Cc2ccccc2OC1)NCc1ccncc1 read A: 13.59% and -4.247%; B: -8.894%.
COc1ccc(NC(=O)c2cccc(OC)c2OC)cc1 read A: 22.63%.
c1cnc(N2CCC(c3nccn3CC3CC3)CC2)nc1 read B: -3.019%.
[H][C@]12CC[C@]([H])(CN(Cc3nnc(-c4ccccc4)o3)C1)N(CC1CCC1)C2 read A: -43.34%; B: 5.803%.
Cc1cccc(CS(=O)(=O)c2nnc(N3CCOCC3)s2)c1 read A: 0.3422% and 5.678%; B: 5.296%.
CC(=O)N1CCCC1C(=O)NCCOc1cc(C)cc(C)c1 (centres unmarked) read A: -10.91%; B: -26.14%.
COC1(CNC(=O)c2ccc(Cl)c(Cl)c2)CCSC1 (centres unmarked) read B: 13.15%.
Cc1cc(C)n(-c2ccc(NCCNS(=O)(=O)c3ccccc3)nn2)n1 read A: -1.012%; B: -8.171%.
Cc1ccc(CN(C)C(=O)Cn2nc(-c3ccc(F)cc3)oc2=O)cc1 read B: -24.99%.
CN(C)c1ccc(CC(=O)N2CCOCC(O)C2)cc1 (centres unmarked) read A: -26%; B: -13.69%.
CC(C)OCCS(=O)(=O)c1nccn1-c1cccc(F)c1 read A: 18.75%; B: -9.749%.
[H][C@@]12CCN(C[C@@H]1CC)[C@@H](CNCc1ccc(OC(F)(F)F)cc1)C2 read A: 59.35% and 65.97%; B: 59.7%.
COc1cc(NC(=O)c2nc3ccccc3n(C)c2=O)cc(OC)c1 read A: -1.563%.
CN[C@@H]1CCC[C@@H](Oc2ccccc2Oc2ccc(C)cc2)[C@@H]1O read B: 54.54% and 46.96%.
O=C(CCN1CCCC1c1cccc2c1OCCO2)N1CCCCC1 (centres unmarked) read A: 41.17%.
CCCn1nnc(NCc2cc(Br)cc(Br)c2OC)n1 read A: 39.99%; B: -10.06%.
O=C(O)c1ccnc(-c2ccnc(COc3ccc(Cl)cc3)n2)c1 read B: -34.89%.
COc1ccc(CCCN(C)C(=O)c2cc(Cl)c[nH]2)cc1OC read A: 2.651%; B: 8.396%.
COc1cccc(CN(C)C(=O)c2csc(-c3nnc[nH]3)n2)c1 read B: -6.483% and -5.001%.
CCNC(=O)NC(C)c1nc(-c2ccc(Br)cc2)no1 (centres unmarked) read A: 38.52%.
CN(Cc1ccccc1)C(=O)CCN1C[C@H](C2CC2)[C@@H](N(C)C)C1 read A: -31.97% and -1.381%.
FC1(F)CCNCC12CCN(c1ccccn1)C2 (centres unmarked) read B: -28.06%.
COc1cccc2c1OCC(C(=O)N1Cc3ccccc3C1)C2 (centres unmarked) read A: 4.225%.
Cn1cnc2c1CCN(Cc1csc(-c3ccccc3)n1)C2 read A: -6.514%; B: -29.68%.

The last 2 entries again:

For COc1cccc2c1OCC(C(=O)N1Cc3ccccc3C1)C2 (centres unmarked) the result was A: 4.225%.
For Cn1cnc2c1CCN(Cc1csc(-c3ccccc3)n1)C2 the result was A: -6.514%; B: -29.68%.

Source: ChEMBL document CHEMBL3988442, “University of Dundee, Small-Polar-MMV Screening Library” (2021).